A mixed list of measured activities; the numbers were collected in NIAID ChemDB.

All rows: tests in culture

Percent inhibition refers to the dose given; in toxicity tests it is the harm to the cells. ECn is the concentration giving n% inhibition of infection, replication or growth. A number after MIC or MFC names an inhibition level or a share of isolates. An empty or dashed field is not shown. Lines come from different laboratories, so protocols vary.

compound | cell line | species | read by | tested at | strain | endpoint | value
O=S(=O)([O-])c1cc(O)c2ccccc2c1 | Human conjunctiva cells | Herpes simplex virus | cytopathic effect | 5 µg/mL |  | inhibition | 0%
CCOC(=O)c1c(C)nc(NCCCCNc2ccnc3cc(Cl)ccc23)nc1-c1ccc(F)cc1 |  | Cryptococcus neoformans |  |  | F-10 | MIC99 | 4 µg/mL
O=S(=O)([O-])c1ccc(NS(=O)(=O)c2ccccc2)c2c(S(=O)(=O)[O-])cccc12 | Human amnion AV3 cells | Adenovirus | cytopathic effect | 50 µg/mL | TYPE 3 | inhibition | 0%
O=[N+]([O-])c1ccc(C=Nc2ccccc2O)cc1 |  | Cryptococcus gattii |  |  | 29/10893 | MIC99 | 16 µg/mL
CC(=O)N[C@H]1[C@H]([C@H](O)[C@H](O)CO)OC(C(=O)O)=C[C@@H]1N=C(N)N | MDCK | Influenza A virus | visual reading |  | Influenza A/Johannesburg/33/94 (H3N2) | EC50 | 0.12 µM
Cc1cn([C@@H]2O[C@H](CO)[C@@H](O)[C@@H]2O)c(=O)[nH]c1=O | HELF | Varicella zoster virus | plaque count | 0.01 µg/mL | KANNO | inhibition | 34%
Nc1cccc(S(=O)(=O)O)c1 | Human amnion AV3 cells | Herpes simplex virus | cytopathic effect | 50 µg/mL |  | inhibition | 17%
CCOC(=O)/C=C/[C@H](C[C@@H]1CCNC1=O)NC(=O)[C@@H](CC(=O)[C@@H](NC(=O)c1cc(C)on1)C(C)C)Cc1ccc(F)cc1 | OHIO HELA-I | Rhinovirus | cytopathic effect / visual reading |  | Isolate 38 | EC50 | 0.02 µg/mL
Nc1nc2c(ncn2COCCO)c(=O)[nH]1 | HELF | Varicella zoster virus | plaque count | 1 µg/mL | HIRAI | inhibition | 92%
O=C(O)c1cc(S(=O)(=O)[O-])ccc1O | Human embryonic lung cells | Adenovirus | cytopathic effect | 5 µg/mL | TYPE 3 | inhibition | 0%
Oc1ccccc1N=Cc1cccc(O)c1O |  | Cryptococcus neoformans |  |  | WP | MIC99 | 2.8 µg/mL
C=Cc1cn([C@@H]2O[C@H](CO)[C@@H](O)[C@@H]2O)c(=O)[nH]c1=O | HELF | Varicella zoster virus | plaque count | 0.1 µg/mL | Asahikawa | inhibition | 14%
Cc1cc(-c2ccc(N=Nc3c(N)c(S(=O)(=O)O)cc4cc(S(=O)(=O)O)ccc34)c(C)c2)ccc1N=Nc1c(N)ccc2cc(S(=O)(=O)O)ccc12 | Human conjunctiva cells | Herpes simplex virus | cytopathic effect | 10 µg/mL |  | inhibition | 100%
CCC(CC)O[C@@H]1C=C(C(=O)O)C[C@H](N)[C@H]1NC(C)=O | MDCK | Influenza B virus | plaque count |  | Memphis/20/96 | EC50 | 0.055 µg/mL
CCO/N=C/c1ccc(OCCC2CCN(c3ccc(Cl)nn3)CC2)cc1 | KB | Rhinovirus | neutral red |  | 209 (ICAM-1 receptor group 39) | EC50 | 0.003 µM
O=S(=O)(O)c1cc(O)c2c(O)cc(S(=O)(=O)O)cc2c1 | Human conjunctiva cells | Herpes simplex virus | cytopathic effect | 50 µg/mL |  | inhibition | 100%
C=CCc1ccc(OC)c(OC)c1 |  | Candida tropicalis | turbidity |  | 2480 | MIC90 | 340 µg/mL
Oc1ccccc1N=Cc1ccc(F)cc1 |  | Cryptococcus gattii |  |  | 135L/03 | MIC99 | 16 µg/mL
CN[C@H]1CC[C@@H](c2ccc(Cl)c(Cl)c2)c2ccccc21 |  | Cryptococcus neoformans | broth dilution |  | XL1495 | MFC | 8 µg/mL
O=c1[nH]c(=O)n([C@@H]2O[C@H](CO)[C@@H](O)[C@@H]2O)cc1/C=C/Br | HELF | Varicella zoster virus | plaque count | 0.0001 µg/mL | Asahikawa | inhibition | 22%
Nc1nc2c(ncn2C=C2CC2CO)c(=O)[nH]1 |  | Human cytomegalovirus | plaque count |  | VR5406 (ganciclovir-resistant) | EC50 | 3.3 µM
O=c1[nH]c(=O)n([C@H]2C[C@H](O)[C@@H](CO)O2)cc1I | HELF | Varicella zoster virus | plaque count | 1 µg/mL | KANNO | inhibition | 25%
Nc1ccc(S(=O)(=O)[O-])c2c(S(=O)(=O)[O-])ccc(O)c12 | Human conjunctiva cells | Herpes simplex virus | cytopathic effect | 5 µg/mL |  | inhibition | 0%

Repeating the first 2 entries:

compound | cell line | species | read by | tested at | strain | endpoint | value
O=S(=O)([O-])c1cc(O)c2ccccc2c1 | Human conjunctiva cells | Herpes simplex virus | cytopathic effect | 5 µg/mL |  | inhibition | 0%
CCOC(=O)c1c(C)nc(NCCCCNc2ccnc3cc(Cl)ccc23)nc1-c1ccc(F)cc1 |  | Cryptococcus neoformans |  |  | F-10 | MIC99 | 4 µg/mL